# Measured data: PubChem BioAssay AID504761 (Drosophila RNAi Screening Center, 2011)
# Test: 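Genome-wide fly cell screen for genes dengue virus requires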 (primary screen)
# Cells: D.Mel-2 cells from Drosophila
# Reagent: long dsRNA against Drosophila genes
# Challenge: infection with dengue virus type 2; dose and infection time not stated
# Measurement: 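Per well on two replicate plates, imaging gave the percent of cells positive for viral envelope protein, ranked by infection, and a nuclear count of cells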
# Reading the numbers: infection score: higher = more virus-infected cells; cell count: higher = more cells in the well
# Rule for the call: 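Low infection ranks in the two replicates (chance level up to 0.065) followed by a retest with a 1.5-fold or larger significant decrease, p below 0.05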
# Calls: active = confirmed: knock-down lowers infection; inactive = not picked or not confirmed
# The screen tested about 22,000 reagents; this is an unselected part of those with a known target gene and a result. In the full data, 116 (0.52%) got an active call. 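Calls depend on retest data that are not deposited; infection was ranked per plate without normalising between plates; the unit of the infection score is not given.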 Raw values are not corrected between plates. The numbers tell different reagents against one gene apart. Further read-outs or replicates are left out here. No sequences are given here. Not stated in the record: the amount of reagent, the time to read-out.
gene,reagent,"infection score, replicate 1","infection score, replicate 2","cell count, replicate 1",Outcome
wal (walrus),1,32.1,9.28,4132,inactive
wal (walrus),2,6.05,3.61,6283,inactive
CG13138,1,1.27,4.31,6590,inactive
mRpL44 (mitochondrial ribosomal protein L44),1,7.53,16.6,5992,inactive
mRpL44 (mitochondrial ribosomal protein L44),2,4.47,7.33,5777,inactive
CG7083,1,1.86,2.29,5969,inactive
CG7083,2,6.83,11,6339,inactive
Ho (Heme oxygenase),1,8.98,5.87,6369,inactive
Hpf1 (Histone PARylation factor 1),1,10.4,7.05,5477,inactive
CG17625,1,1.83,19.7,5799,inactive
CG8507,1,7.1,7.23,6356,inactive
CG4751,1,18.4,7.29,6009,inactive
TwdlD (TweedleD),1,4.48,7.35,6145,inactive
CG12520,1,0.47,1.42,6170,inactive
Wnt2 (Wnt oncogene analog 2),1,7.99,4.83,6159,inactive
Wnt2 (Wnt oncogene analog 2),2,9.33,3.95,6751,inactive
Doc3 (Dorsocross3),1,3.69,8.84,5418,inactive
Doc3 (Dorsocross3),2,17.6,8.56,2309,inactive
Or46a (Odorant receptor 46a),1,30.1,17.4,5993,inactive
Or46a (Odorant receptor 46a),2,6.57,12.1,6345,inactive
Or46a (Odorant receptor 46a),3,25.6,15.9,5952,inactive
Or46a (Odorant receptor 46a),4,23.4,27,5086,inactive
CG14302,1,3.95,9.71,5776,inactive
Gp150,1,0.95,2.3,6741,inactive
Gp150,2,,12.5,316,inactive
PolE4 (DNA polymerase epsilon subunit 4),1,,0.38,635,inactive
Or35a (Odorant receptor 35a),1,1.59,10.6,6727,inactive
CG10431,1,4.2,4.75,5787,inactive
CG9993,1,5.85,8.26,6567,inactive
Hydr2 (alpha/beta hydrolase2),1,5.93,4.74,6090,inactive
CG31368,1,9.04,5.99,6228,inactive
CG31368,2,10.6,9.16,5593,inactive
Ir48b (Ionotropic receptor 48b),1,23.6,10.1,6129,inactive
Orai,1,2.8,0.99,6387,inactive
CG5742,1,17.8,15.6,5940,inactive
CG5742,2,15.8,19.4,6631,inactive
Kmn1 (kinetochore Mis12-Ndc80 network component 1),1,5.81,30.9,5857,inactive
Kmn1 (kinetochore Mis12-Ndc80 network component 1),2,23,6.06,5636,inactive
CG14435,1,1.34,7.14,6025,inactive
CG12645,1,5.06,12,6739,inactive
CG12645,2,2.38,4.7,6429,inactive
cuff (cutoff),1,19.4,19,6362,inactive
Targ1 (Terminal ADP-ribose protein glycohydrolase 1),1,9.25,6.63,6204,inactive
Nup43 (Nucleoporin 43kD),1,6.35,3.23,1828,inactive
CG32651,1,2.8,1.75,6472,inactive
sNPF (short neuropeptide F precursor),1,5.08,1.35,5490,inactive
Fum2 (Fumarase 2),1,5.25,7.83,6174,inactive
Fum2 (Fumarase 2),2,4.05,5.76,6782,inactive
CG12688 (retired record),1,12.5,6.08,3608,inactive
CG12688 (retired record),2,14.1,8.72,4491,inactive
ND-B14.5A (NADH dehydrogenase (ubiquinone) B14.5 A subunit),1,2.97,7.27,6724,inactive
Gnpat (Glyceronephosphate O-acyltransferase),1,2.23,0.49,1391,inactive
RpS14a (Ribosomal protein S14a),1,9.5,11.6,1821,inactive
CG6310,1,3,8.18,5992,inactive
grnd (grindelwald),1,7.37,5.58,2591,inactive
CG17267,1,1.33,1.55,6532,inactive
Cpr76Bd (Cuticular protein 76Bd),1,11,7.81,6254,inactive
TwdlB (TweedleB),1,,0.21,472,inactive
TwdlB (TweedleB),2,8.65,19.9,4463,inactive
Cyp6w1 (Cytochrome P450 6w1),1,11.7,29.2,6678,inactive
AgmNAT (Agmatine N-acetyltransferase),1,0.75,1.57,6020,inactive
CG12984,1,6.45,5.94,6529,inactive
Ndfip (Nedd4 family interacting protein),1,8.63,7.92,3942,inactive
CG11052,1,15.2,6.28,5928,inactive
obe (obelus),1,1.9,2.61,6196,active
CG4884,1,1.79,5.02,5910,inactive
CG4884,2,6.14,3,6546,inactive
LManIII (Lysosomal alpha-mannosidase III),1,8.76,3.16,6333,inactive
LManIII (Lysosomal alpha-mannosidase III),2,9.33,4.27,1286,inactive
pk (prickle),1,10.7,11.5,5564,inactive
pk (prickle),2,3.74,6.3,7077,inactive
pk (prickle),3,4.11,1.71,6138,inactive
CG14401,1,1.44,10.3,6385,inactive
CG14401,2,3.99,5.29,6785,inactive
CG14401,3,2.71,4.2,6315,inactive

Hits, of those listed so far:
gene,reagent,"infection score, replicate 1","infection score, replicate 2","cell count, replicate 1",Outcome
obe (obelus),1,1.9,2.61,6196,active
